A mixed list of measured activities; the numbers were collected in NIAID ChemDB.

Common to all: whole-cell or culture tests; species: Influenza A virus; cells: MDCK; measure: EC50

Neighbouring rows are from separate reports.

SMILES,strain,read by,result
CC(N)C12CC3CC(CC(C3)C1)C2,Influenza A H3N2 isolate 53,ELISA,13.3 µg/mL
CCOc1ncn(-c2ccc(NC(=S)Nc3cccc(O)c3)cc2)n1,Ishikawa,cytopathic effect,100 µg/mL
CCN(CC)C(=S)Sc1ncnc(N2CC[N+]3(CC2)CC[N+]2(CCN(c4ncnc(SC(=S)N(CC)CC)c4[N+](=O)[O-])CC2)CC3)c1[N+](=O)[O-],,cytopathic effect,>70 µg/mL
CCCN(CCC)C(=O)O[C@@H]([C@@H]1OC(C(=O)O)=C[C@H](N)[C@H]1NC(=O)O)[C@H](C)CO,H3N2 AICHI,plaque count,2.95 µg/mL
CC(C)CS[C@H]1C[C@@H](n2cnc3c(N)ncnc32)[C@H](O)[C@@H]1O,,cytopathic effect,>100 µg/mL
CC=NC(=N)c1nc(-c2cccc(OC)c2)n(Cc2ccccc2)n1,Ishikawa,cytopathic effect,>100 µg/mL
Nc1ncnc2c1ccn2[C@@H]1C[C@H](O)[C@@H](O)[C@H]1O,Influenza A/Ishikawa/222/82 (H3N2),,>100 µg/mL
O=[N+]([O-])c1c(N2CC[N+]3(CC2)CC[N+]2(CCNCC2)CC3)ncnc1N1CC[N+]2(CC1)CC[N+]1(CCNCC1)CC2,,cytopathic effect,>70 µg/mL
CCC,USSR/2/85 (H3),,>50 µM
C[C@H](CO)[C@@H](OC(=O)NCCO[C@@H]1O[C@@H](CO)[C@H](O)[C@@H](O)[C@H]1O)[C@@H]1OC(C(=O)O)=C[C@H](N=C(N)N)[C@H]1NC(=O)O,H3N2 AICHI,plaque count,<0.1 µg/mL
CC=NC(=N)c1nc(-c2ccc(C)cc2)n(Cc2ccccc2)n1,Ishikawa,cytopathic effect,>20 µg/mL
O=C(/C=C/c1ccc(O)c(O)c1)O[C@@H]1CC(O)(C(=O)O)C[C@@H](OC(=O)/C=C/c2ccc(O)c(O)c2)C1O,A/Shandong/09/93 (H3N2),cytopathic effect,>100 µM
CCCOc1ncn(-c2ccc(NC(=S)NC34CC5CC(CC(C5)C3)C4)cc2)n1,Ishikawa,cytopathic effect,20 µg/mL
[O-][n+]1onc2c(N3CC[N+]4(CC3)CC[N+]3(CCN(c5ncnc6no[n+]([O-])c56)CC3)CC4)ncnc21,,cytopathic effect,>70 µg/mL
CC(C)C1CC2C(N)C(C1)[C@H](C)[C@@H]2C,,plaque count,34.3 µM
C/C1=C\C=C\C2(C)C=C(CO[C@H]3O[C@H](CO)[C@H](O)[C@H](O)[C@H]3O)C(C)CC23OC([O-])C(C3=O)C(O)/C=C/C2(C)C=C(C=O)C(C)CC23OC([O-])C(C3=O)C(O)/C(C)=C/C=C/C2C=C(CO[C@H]3O[C@H](CO)[C@H](O)[C@H](O)[C@H]3O)C(C)CC23OC([O-])C(C3=O)C(O)/C=C/C2(C)C=C(C=O)C(C)CC23OC([O-])C(C3=O)C1O,A/Victoria,cytopathic effect,>100 µg/mL
CON=C[C@H]1O[C@@H](n2cnc3c(N)ncnc32)[C@H](O)[C@@H]1O,Ishiwara,cytopathic effect,0.8 µg/mL
CCCOc1ncn(-c2ccc(NC(=S)Nc3cccc(O)c3)cc2)n1,Ishikawa,cytopathic effect,>100 µg/mL
CCOC(=O)c1ccc(OC(=O)CCCCCN=C(N)N)cc1.COS(=O)(=O)O,B/Singapore/222/79,cytopathic effect,130 µg/mL
CC1=C(C)C2C(N)C1[C@@H](C(C)C)C[C@@H]2C,,plaque count,51 µM
O=C(NCCCl)N1CC[N+]2(CC1)CC[N+]1(CCN(C(=O)NCCCl)CC1)CC2,,cytopathic effect,>70 µg/mL
C1=CCC2(CC1)COC(c1ccco1)OC2,Influenza A/Ishikawa/7/82 (H3N2),cytopathic effect,>500 µg/mL
C/C1=C\C=C\C2(C)C=C(CO)C(C)CC23OC([O-])C(C3=O)C(O)/C=C/C2(C)C=C(CO)C(C)CC23OC([O-])C(C3=O)C(O)/C(C)=C/C=C/C2C=C(CO)C(C)CC23OC([O-])C(C3=O)C(O)/C=C/C2(C)C=C(CO)C(C)CC23OC([O-])C(C3=O)C1O,A/Victoria,cytopathic effect,24 µg/mL
CCC(CC)O[C@@H]1C=C(C(=O)O)C[C@H](N)[C@H]1NC(C)=O,Influenza A/Sydney/05/97 (H3N2),visual reading,0.18 µM
CC=NC(=N)c1nc(-c2ccc(OC)cc2)n(COCCO)n1,Ishikawa,cytopathic effect,>200 µg/mL
CCON=C[C@H]1O[C@@H](n2cnc3c(N)ncnc32)[C@H](O)[C@@H]1O,Ishiwara,cytopathic effect,0.8 µg/mL
C1CN(CC2CO2)CC[N+]2(C1)CC[N+]1(CCCN(CC3CO3)CC1)CC2,,cytopathic effect,>70 µg/mL
CC12CCCC(CC1)C2N,,plaque count,>25 µM
Nc1ccn([C@@H]2C=C(CO)[C@@H](O)[C@H]2O)c(=O)n1,,cytopathic effect,4.5 µg/mL
Nc1nc(Cl)cc(NCC2(CO)CC(Cc3ccccc3)C2)n1,H1N1 A/PR/8/34,plaque count,0.42–1.2 µM
Nc1nccc2c1ncn2[C@@H]1C[C@H](CO)[C@@H](O)[C@H]1O,,cytopathic effect,100 µg/mL
CCOc1ncn(-c2ccc(NC(=S)NC34CC5CC(CC(C5)C3)C4)cc2)n1,Ishikawa,cytopathic effect,20 µg/mL
CC=NC(=N)c1nc(-c2ccccc2)n(C/C=C/c2ccccc2)n1,Ishikawa,cytopathic effect,>20 µg/mL
[N-]=C=Nc1nncs1,Influenza A/Virginia/88 (H3N2),virus yield,<1 µg/mL
C/C1=C\C=C\C2(C)C=C(CO)C(C)CC23OC([O-])C(C3=O)C(O)/C=C/C2(C)C=C(C=O)C(C)CC23OC([O-])C(C3=O)C(O)/C(C)=C/C=C/C2C=C(CO)C(C)CC23OC([O-])C(C3=O)C(O)/C=C/C2(C)C=C(C=O)C(C)CC23OC([O-])C(C3=O)C1O,A/Victoria,cytopathic effect,6.8 µg/mL
C[C@H](CO)[C@@H](OC(=O)NCCSc1ncccn1)[C@@H]1OC(C(=O)O)=C[C@H](N=C(N)N)[C@H]1NC(=O)O,H3N2 AICHI,plaque count,0.0001 µg/mL
COc1c(Cl)nc(N)nc1NCC1(CO)CC(CCc2ccccc2)C1,H1N1 A/PR/8/34,plaque count,0.53–0.8 µM
CCCCCCCNC(=O)O[C@@H]([C@@H]1OC(C(=O)O)=C[C@H](N=C(N)N)[C@H]1NC(=O)O)[C@H](C)CO,H3N2 AICHI,plaque count,0.05 µg/mL
C[C@@H]1C2CCCC(C2N)[C@@H]1c1ccccc1,,plaque count,>25 µM
CC=NC(=N)c1nc(-c2ccc(C)cc2)n(C/C=C/c2ccccc2)n1,Ishikawa,cytopathic effect,>20 µg/mL
NN1CC[N+]2(CC1)CC[N+]1(CCN(N)CC1)CC2,,cytopathic effect,>70 µg/mL
CCC(CC)O[C@@H]1C=C(C(=O)O)C[C@H](N)[C@H]1NC(C)=O,Influenza A H3N2 isolate C25C,plaque count,≤0.015 µg/mL
C1C[N+]2(CCN1)CC[N+]1(CCNCC1)CC2,,cytopathic effect,>70 µg/mL
Nc1nc(Cl)cc(NCC2(CO)CCC(O)C2)n1,H1N1 A/PR/8/34,plaque count,>110 µM
CCNC1C2CCCC1[C@@H](C)C2,,plaque count,10 µM
CCOc1ncn(-c2ccc(NC(=S)NC3O[C@H](CO)[C@@H](O)[C@H](O)[C@H]3O)cc2)n1,Ishikawa,cytopathic effect,>200 µg/mL
CC1=C(C)C2C(N)C1[C@H](C(C)C)C[C@H]2C,,plaque count,53 µM
CC=NC(=N)c1nc(-c2ccc(OC)cc2)n(C/C=C/c2ccccc2)n1,Ishikawa,cytopathic effect,>100 µg/mL

Repeating the first 5 entries:

SMILES	strain	read by	result
CC(N)C12CC3CC(CC(C3)C1)C2	Influenza A H3N2 isolate 53	ELISA	13.3 µg/mL
CCOc1ncn(-c2ccc(NC(=S)Nc3cccc(O)c3)cc2)n1	Ishikawa	cytopathic effect	100 µg/mL
CCN(CC)C(=S)Sc1ncnc(N2CC[N+]3(CC2)CC[N+]2(CCN(c4ncnc(SC(=S)N(CC)CC)c4[N+](=O)[O-])CC2)CC3)c1[N+](=O)[O-]		cytopathic effect	>70 µg/mL
CCCN(CCC)C(=O)O[C@@H]([C@@H]1OC(C(=O)O)=C[C@H](N)[C@H]1NC(=O)O)[C@H](C)CO	H3N2 AICHI	plaque count	2.95 µg/mL
CC(C)CS[C@H]1C[C@@H](n2cnc3c(N)ncnc32)[C@H](O)[C@@H]1O		cytopathic effect	>100 µg/mL

ECn is the concentration giving n% inhibition of infection, replication or growth. a–b is a range or a potency band. An empty or dashed field is not shown.